Amino acid sequences for entries named in this document (tags omitted). Residues count along the entry.
UniProt P04756, 21-457 limits assumed: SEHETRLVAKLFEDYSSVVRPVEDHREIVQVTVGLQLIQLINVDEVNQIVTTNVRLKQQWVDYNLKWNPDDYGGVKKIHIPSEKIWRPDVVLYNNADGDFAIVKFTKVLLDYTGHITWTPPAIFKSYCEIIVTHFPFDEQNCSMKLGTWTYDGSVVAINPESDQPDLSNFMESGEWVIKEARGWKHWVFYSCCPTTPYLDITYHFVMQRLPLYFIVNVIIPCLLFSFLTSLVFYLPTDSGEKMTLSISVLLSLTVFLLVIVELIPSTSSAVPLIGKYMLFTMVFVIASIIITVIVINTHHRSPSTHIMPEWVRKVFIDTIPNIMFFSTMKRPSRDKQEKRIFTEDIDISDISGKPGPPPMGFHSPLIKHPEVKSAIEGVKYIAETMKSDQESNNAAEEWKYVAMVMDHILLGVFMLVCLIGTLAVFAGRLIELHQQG
UniProt P09690, 24-501 partner limits assumed: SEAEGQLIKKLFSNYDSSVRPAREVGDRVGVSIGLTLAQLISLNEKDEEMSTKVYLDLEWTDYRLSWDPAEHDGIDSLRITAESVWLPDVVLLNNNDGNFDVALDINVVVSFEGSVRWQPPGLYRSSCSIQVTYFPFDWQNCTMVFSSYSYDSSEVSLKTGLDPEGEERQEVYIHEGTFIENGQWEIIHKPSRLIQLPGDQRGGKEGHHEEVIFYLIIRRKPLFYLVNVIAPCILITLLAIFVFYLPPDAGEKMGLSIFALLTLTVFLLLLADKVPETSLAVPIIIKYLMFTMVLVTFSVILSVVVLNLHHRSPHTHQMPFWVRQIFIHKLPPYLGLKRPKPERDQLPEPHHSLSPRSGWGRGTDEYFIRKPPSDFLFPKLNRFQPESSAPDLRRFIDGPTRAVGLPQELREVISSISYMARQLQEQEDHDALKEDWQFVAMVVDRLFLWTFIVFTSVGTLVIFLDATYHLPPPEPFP
UniProt P02716, 25-520 partner limits assumed: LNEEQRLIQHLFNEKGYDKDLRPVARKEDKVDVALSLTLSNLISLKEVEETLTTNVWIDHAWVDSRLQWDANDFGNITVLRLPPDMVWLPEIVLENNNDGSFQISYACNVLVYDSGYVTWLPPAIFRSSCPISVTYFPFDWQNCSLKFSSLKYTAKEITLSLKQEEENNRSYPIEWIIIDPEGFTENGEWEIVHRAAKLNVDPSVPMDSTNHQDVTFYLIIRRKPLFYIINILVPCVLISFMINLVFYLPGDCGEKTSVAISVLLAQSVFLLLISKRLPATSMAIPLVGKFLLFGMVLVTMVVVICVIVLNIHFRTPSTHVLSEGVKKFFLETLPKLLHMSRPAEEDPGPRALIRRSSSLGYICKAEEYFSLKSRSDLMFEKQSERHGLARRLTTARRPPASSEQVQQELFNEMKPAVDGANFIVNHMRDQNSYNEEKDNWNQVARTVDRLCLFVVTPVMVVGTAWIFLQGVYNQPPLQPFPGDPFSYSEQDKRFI
UniProt P20782, 21-493 partner limits assumed: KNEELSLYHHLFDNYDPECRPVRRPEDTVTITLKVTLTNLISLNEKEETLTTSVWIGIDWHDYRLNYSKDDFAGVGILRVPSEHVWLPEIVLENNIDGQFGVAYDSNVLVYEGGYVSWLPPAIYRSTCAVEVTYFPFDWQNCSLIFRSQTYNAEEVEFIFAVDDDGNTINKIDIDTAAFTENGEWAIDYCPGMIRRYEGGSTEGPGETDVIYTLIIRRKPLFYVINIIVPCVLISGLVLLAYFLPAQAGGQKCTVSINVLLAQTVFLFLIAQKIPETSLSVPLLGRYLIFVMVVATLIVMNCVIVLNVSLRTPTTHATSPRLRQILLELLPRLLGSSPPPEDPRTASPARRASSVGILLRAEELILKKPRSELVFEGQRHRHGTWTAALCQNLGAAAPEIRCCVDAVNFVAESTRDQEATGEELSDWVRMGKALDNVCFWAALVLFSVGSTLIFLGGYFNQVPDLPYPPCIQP

In ChEMBL document CHEMBL5346973 (J Med Chem, 2023):

Legend:
[1] = Selectivity ratio of IC50 for mouse alpha1beta1deltaepsilon nACh receptor to IC50 for rat alpha9alpha10 nACh receptor
[2] = molecular target: Nicotinic acetylcholine receptor alpha1/beta1/epsilon/delta (Mus musculus) (UniProt P04756+P09690+P02716+P20782); experiment: Antagonist activity at mouse alpha1beta1deltaepsilon nACh receptor expressed in Xenopus oocyte assessed as inhibition of acetylcholine-induced response at -70 mV holding potential by measuring ratio of IC50 by voltage-clamp based electrophysiological assay relative to GeXIVA; conditions: filed as antagonist

## CC[C@H](C)[C@@H]1NC(=O)[C@H](CCCNC(=N)N)NC(=O)[C@H](C)NC(=O)[C@@H](NC(=O)[C@H](Cc2ccc(O)cc2)NC(=O)[C@H](CCCNC(=N)N)NC(=O)[C@H](CCCNC(=N)N)NC(=O)[C@H](CCCNC(=N)N)NC(=O)[C@H](CCCNC(=N)N)NC(=O)[C@H](CC(=O)O)NC(=O)[C@H](Cc2ccc(O)cc2)NC(=O)[C@@H]2CCCN2C(=O)[C@H](CO)NC(=O)[C@H](CCCNC(=N)N)NC(=O)[C@@H]2CSSC[C@H](NC(=O)[C@@H](N)[C@@H](C)O)C(=O)N[C@@H](CCCNC(=N)N)C(=O)N[C@@H](CO)C(=O)N[C@@H](CO)C(=O)NCC(=O)N[C@@H](CCCNC(=N)N)C(=O)N[C@@H](Cc3ccc(O)cc3)C(=O)N2)CSSC[C@@H](C(=O)N[C@H](C(=O)O)C(C)C)NC(=O)[C@H](C)NC(=O)[C@H](CC(=O)O)NC(=O)[C@H]([C@@H](C)O)NC1=O
[1]
  Ratio IC50: 154
[2]
  Ratio IC50: 4.1

## CC[C@H](C)[C@@H]1NC(=O)[C@H](CCCNC(=N)N)NC(=O)[C@H](CCCNC(=N)N)NC(=O)[C@@H](NC(=O)[C@H](Cc2ccc(O)cc2)NC(=O)[C@H](CCCNC(=N)N)NC(=O)[C@H](CCCNC(=N)N)NC(=O)[C@H](CCCNC(=N)N)NC(=O)[C@H](CCCNC(=N)N)NC(=O)[C@H](CC(=O)O)NC(=O)[C@H](Cc2ccc(O)cc2)NC(=O)[C@@H]2CCCN2C(=O)[C@H](CO)NC(=O)[C@H](CCCNC(=N)N)NC(=O)[C@@H]2CSSC[C@H](NC(=O)[C@@H](N)[C@@H](C)O)C(=O)N[C@@H](CCCNC(=N)N)C(=O)N[C@@H](CO)C(=O)N[C@@H](CO)C(=O)NCC(=O)N[C@@H](C)C(=O)N[C@@H](Cc3ccc(O)cc3)C(=O)N2)CSSC[C@@H](C(=O)N[C@H](C(=O)O)C(C)C)NC(=O)[C@H](C)NC(=O)[C@H](CC(=O)O)NC(=O)[C@H]([C@@H](C)O)NC1=O
[1]
  Ratio IC50: 66.6
[2]
  Ratio IC50: 5.6

## CC[C@H](C)[C@@H]1NC(=O)[C@H](CCCNC(=N)N)NC(=O)[C@H](CCCNC(=N)N)NC(=O)[C@@H](NC(=O)[C@H](Cc2ccc(O)cc2)NC(=O)[C@H](CCCNC(=N)N)NC(=O)[C@H](CCCNC(=N)N)NC(=O)[C@H](CCCNC(=N)N)NC(=O)[C@H](CCCNC(=N)N)NC(=O)[C@H](CC(=O)O)NC(=O)[C@H](Cc2ccc(O)cc2)NC(=O)[C@@H]2CCCN2C(=O)[C@H](C)NC(=O)[C@H](CCCNC(=N)N)NC(=O)[C@@H]2CSSC[C@H](NC(=O)[C@@H](N)[C@@H](C)O)C(=O)N[C@@H](CCCNC(=N)N)C(=O)N[C@@H](CO)C(=O)N[C@@H](CO)C(=O)NCC(=O)N[C@@H](CCCNC(=N)N)C(=O)N[C@@H](Cc3ccc(O)cc3)C(=O)N2)CSSC[C@@H](C(=O)N[C@H](C(=O)O)C(C)C)NC(=O)[C@H](C)NC(=O)[C@H](CC(=O)O)NC(=O)[C@H]([C@@H](C)O)NC1=O
[1]
  Ratio IC50: 42.3
[2]
  Ratio IC50: 2.1

## CC[C@H](C)[C@@H]1NC(=O)[C@H](CCCNC(=N)N)NC(=O)[C@H](CCCNC(=N)N)NC(=O)[C@@H]2CSSC[C@H](NC(=O)[C@H](Cc3ccc(O)cc3)NC(=O)[C@H](CCCNC(=N)N)NC(=O)CNC(=O)[C@H](CO)NC(=O)[C@H](CO)NC(=O)[C@H](CCCNC(=N)N)NC(=O)[C@@H](NC(=O)[C@@H](N)[C@@H](C)O)CSSC[C@@H](C(=O)N[C@H](C(=O)O)C(C)C)NC(=O)[C@H](C)NC(=O)[C@H](CC(=O)O)NC(=O)[C@H]([C@@H](C)O)NC1=O)C(=O)N[C@@H](CCCNC(=N)N)C(=O)N[C@@H](C)C(=O)N1CCC[C@H]1C(=O)N[C@@H](Cc1ccc(O)cc1)C(=O)N[C@@H](CC(=O)O)C(=O)N[C@@H](CCCNC(=N)N)C(=O)N[C@@H](CCCNC(=N)N)C(=O)N[C@@H](CCCNC(=N)N)C(=O)N[C@@H](CCCNC(=N)N)C(=O)N[C@@H](Cc1ccc(O)cc1)C(=O)N2
[1]
  Ratio IC50: 129
[2]
  Ratio IC50: 1.5

## CC[C@H](C)[C@@H]1NC(=O)[C@H](CCCNC(=N)N)NC(=O)[C@H](CCCNC(=N)N)NC(=O)[C@@H]2CSSC[C@H](NC(=O)[C@H](C)NC(=O)[C@H](CCCNC(=N)N)NC(=O)CNC(=O)[C@H](CO)NC(=O)[C@H](CO)NC(=O)[C@H](CCCNC(=N)N)NC(=O)[C@@H](NC(=O)[C@@H](N)[C@@H](C)O)CSSC[C@@H](C(=O)N[C@H](C(=O)O)C(C)C)NC(=O)[C@H](C)NC(=O)[C@H](CC(=O)O)NC(=O)[C@H]([C@@H](C)O)NC1=O)C(=O)N[C@@H](CCCNC(=N)N)C(=O)N[C@@H](CO)C(=O)N1CCC[C@H]1C(=O)N[C@@H](Cc1ccc(O)cc1)C(=O)N[C@@H](CC(=O)O)C(=O)N[C@@H](CCCNC(=N)N)C(=O)N[C@@H](CCCNC(=N)N)C(=O)N[C@@H](CCCNC(=N)N)C(=O)N[C@@H](CCCNC(=N)N)C(=O)N[C@@H](Cc1ccc(O)cc1)C(=O)N2
[1]
  Ratio IC50: 5.1
[2]
  Ratio IC50: 0.7

## CC[C@H](C)[C@@H]1NC(=O)[C@H](CCCNC(=N)N)NC(=O)[C@H](CCCNC(=N)N)NC(=O)[C@@H]2CSSC[C@H](NC(=O)[C@H](Cc3ccc(O)cc3)NC(=O)[C@H](CCCNC(=N)N)NC(=O)CNC(=O)[C@H](CO)NC(=O)[C@H](CO)NC(=O)[C@H](CCCNC(=N)N)NC(=O)[C@@H](NC(=O)[C@@H](N)[C@@H](C)O)CSSC[C@@H](C(=O)N[C@H](C(=O)O)C(C)C)NC(=O)[C@H](C)NC(=O)[C@H](CC(=O)O)NC(=O)[C@H]([C@@H](C)O)NC1=O)C(=O)N[C@@H](CCCNC(=N)N)C(=O)N[C@@H](CO)C(=O)N1CCC[C@H]1C(=O)N[C@@H](Cc1ccc(O)cc1)C(=O)N[C@@H](C)C(=O)N[C@@H](CCCNC(=N)N)C(=O)N[C@@H](CCCNC(=N)N)C(=O)N[C@@H](CCCNC(=N)N)C(=O)N[C@@H](CCCNC(=N)N)C(=O)N[C@@H](Cc1ccc(O)cc1)C(=O)N2
[1]
  Ratio IC50: 187
[2]
  Ratio IC50: 1

## CC[C@H](C)[C@@H]1NC(=O)[C@H](CCCNC(=N)N)NC(=O)[C@H](CCCNC(=N)N)NC(=O)[C@@H]2CSSC[C@H](NC(=O)[C@H](Cc3ccc(O)cc3)NC(=O)[C@H](CCCNC(=N)N)NC(=O)CNC(=O)[C@H](CO)NC(=O)[C@H](CO)NC(=O)[C@H](CCCNC(=N)N)NC(=O)[C@@H](NC(=O)[C@@H](N)[C@@H](C)O)CSSC[C@@H](C(=O)N[C@@H](C)C(=O)O)NC(=O)[C@H](C)NC(=O)[C@H](CC(=O)O)NC(=O)[C@H]([C@@H](C)O)NC1=O)C(=O)N[C@@H](CCCNC(=N)N)C(=O)N[C@@H](CO)C(=O)N1CCC[C@H]1C(=O)N[C@@H](Cc1ccc(O)cc1)C(=O)N[C@@H](CC(=O)O)C(=O)N[C@@H](CCCNC(=N)N)C(=O)N[C@@H](CCCNC(=N)N)C(=O)N[C@@H](CCCNC(=N)N)C(=O)N[C@@H](CCCNC(=N)N)C(=O)N[C@@H](Cc1ccc(O)cc1)C(=O)N2
[1]
  Ratio IC50: 20.2
[2]
  Ratio IC50: 1.5

## CC[C@H](C)[C@@H]1NC(=O)[C@H](C)NC(=O)[C@H](CCCNC(=N)N)NC(=O)[C@@H]2CSSC[C@H](NC(=O)[C@H](Cc3ccc(O)cc3)NC(=O)[C@H](CCCNC(=N)N)NC(=O)CNC(=O)[C@H](CO)NC(=O)[C@H](CO)NC(=O)[C@H](CCCNC(=N)N)NC(=O)[C@@H](NC(=O)[C@@H](N)[C@@H](C)O)CSSC[C@@H](C(=O)N[C@H](C(=O)O)C(C)C)NC(=O)[C@H](C)NC(=O)[C@H](CC(=O)O)NC(=O)[C@H]([C@@H](C)O)NC1=O)C(=O)N[C@@H](CCCNC(=N)N)C(=O)N[C@@H](CO)C(=O)N1CCC[C@H]1C(=O)N[C@@H](Cc1ccc(O)cc1)C(=O)N[C@@H](CC(=O)O)C(=O)N[C@@H](CCCNC(=N)N)C(=O)N[C@@H](CCCNC(=N)N)C(=O)N[C@@H](CCCNC(=N)N)C(=O)N[C@@H](CCCNC(=N)N)C(=O)N[C@@H](Cc1ccc(O)cc1)C(=O)N2
[1]
  Ratio IC50: 12.6
[2]
  Ratio IC50: 2.8

## CC(C)[C@H](NC(=O)[C@@H]1CSSC[C@H](NC(=O)[C@@H](N)[C@@H](C)O)C(=O)N[C@@H](CCCNC(=N)N)C(=O)N[C@@H](CO)C(=O)N[C@@H](CO)C(=O)NCC(=O)N[C@@H](CCCNC(=N)N)C(=O)N[C@@H](Cc2ccc(O)cc2)C(=O)N[C@H]2CSSC[C@H](NC(=O)[C@H](Cc3ccc(O)cc3)NC(=O)[C@H](CCCNC(=N)N)NC(=O)[C@H](CCCNC(=N)N)NC(=O)[C@H](CCCNC(=N)N)NC(=O)[C@H](CCCNC(=N)N)NC(=O)[C@H](CC(=O)O)NC(=O)[C@H](Cc3ccc(O)cc3)NC(=O)[C@@H]3CCCN3C(=O)[C@H](CO)NC(=O)[C@H](CCCNC(=N)N)NC2=O)C(=O)N[C@@H](CCCNC(=N)N)C(=O)N[C@@H](CCCNC(=N)N)C(=O)N[C@@H](C)C(=O)N[C@@H]([C@@H](C)O)C(=O)N[C@@H](CC(=O)O)C(=O)N[C@@H](C)C(=O)N1)C(=O)O
[1]
  Ratio IC50: 664
[2]
  Ratio IC50: 1.1

## CC[C@H](C)[C@@H]1NC(=O)[C@H](CCCNC(=N)N)NC(=O)[C@H](CCCNC(=N)N)NC(=O)[C@@H]2CSSC[C@H](NC(=O)[C@H](Cc3ccc(O)cc3)NC(=O)[C@H](CCCNC(=N)N)NC(=O)CNC(=O)[C@H](CO)NC(=O)[C@H](CO)NC(=O)[C@H](CCCNC(=N)N)NC(=O)[C@@H](NC(=O)[C@@H](N)[C@@H](C)O)CSSC[C@@H](C(=O)N[C@H](C(=O)O)C(C)C)NC(=O)[C@H](C)NC(=O)[C@H](CC(=O)O)NC(=O)[C@H](C)NC1=O)C(=O)N[C@@H](CCCNC(=N)N)C(=O)N[C@@H](CO)C(=O)N1CCC[C@H]1C(=O)N[C@@H](Cc1ccc(O)cc1)C(=O)N[C@@H](CC(=O)O)C(=O)N[C@@H](CCCNC(=N)N)C(=O)N[C@@H](CCCNC(=N)N)C(=O)N[C@@H](CCCNC(=N)N)C(=O)N[C@@H](CCCNC(=N)N)C(=O)N[C@@H](Cc1ccc(O)cc1)C(=O)N2
[1]
  Ratio IC50: 19.7
[2]
  Ratio IC50: 0.8

## CC[C@H](C)[C@@H]1NC(=O)[C@H](CCCNC(=N)N)NC(=O)[C@H](CCCNC(=N)N)NC(=O)[C@@H](NC(=O)[C@H](Cc2ccc(O)cc2)NC(=O)[C@H](CCCNC(=N)N)NC(=O)[C@H](CCCNC(=N)N)NC(=O)[C@H](C)NC(=O)[C@H](CCCNC(=N)N)NC(=O)[C@H](CC(=O)O)NC(=O)[C@H](Cc2ccc(O)cc2)NC(=O)[C@@H]2CCCN2C(=O)[C@H](CO)NC(=O)[C@H](CCCNC(=N)N)NC(=O)[C@@H]2CSSC[C@H](NC(=O)[C@@H](N)[C@@H](C)O)C(=O)N[C@@H](CCCNC(=N)N)C(=O)N[C@@H](CO)C(=O)N[C@@H](CO)C(=O)NCC(=O)N[C@@H](CCCNC(=N)N)C(=O)N[C@@H](Cc3ccc(O)cc3)C(=O)N2)CSSC[C@@H](C(=O)N[C@H](C(=O)O)C(C)C)NC(=O)[C@H](C)NC(=O)[C@H](CC(=O)O)NC(=O)[C@H]([C@@H](C)O)NC1=O
[1]
  Ratio IC50: 174
[2]
  Ratio IC50: 6
